The results in this text go back to US7399782B2, “Polyether brevetoxin derivatives as a treatment for cystic fibrosis, mucociliary dysfunction, and pulmonary diseases” (dated 2008).

The test system of test [1] is conscious sheep. Put plainly: Tracheal mucus velocity (TMV) in conscious sheep. The settings on record: versus PbTx-3 (20 breaths of 10 pg/mL).
Test [2] concerns conscious sheep. As to the kind of experiment: Pulmonary airflow resistance (RL) / brevetoxin-induced bronchoconstriction in conscious sheep. The settings on record: for effect on PbTx-3-induced bronchoconstriction: FIG. 5, 15 minutes prior to PbTx-3 challenge.

On to β-Naphthoyl-PbTx-3, for which the “TMV relative to PbTx-3” value is reported as “increased TMV relative to PbTx-3” with conscious sheep [1] (FIG. 3, 10 pg dose (n=2)) and “increased TMV relative to PbTx-3” with conscious sheep [1] (FIG. 3, 100 pg dose (n=4)). Besides, the “effect on PbTx-2-induced bronchoconstriction” value in the test with conscious sheep [2] (FIG. 4, pretreatment with 20 breaths of 10 pg/mL, 15 minutes prior to PbTx-2 challenge) is “blocked PbTx-2-induced bronchoconstriction”. Also, the “effect on PbTx-3-induced bronchoconstriction” value in the test on conscious sheep [2] (pretreatment with 20 breaths of 10 pg/mL) is on record as “blocked PbTx-3-induced constrictor response”; with conscious sheep [2] (pretreatment with 20 breaths of 100 pg/mL), “increase the inhibition of PbTx-3-induced bronchoconstriction”.
